Results of unrelated studies side by side (data: NIAID ChemDB).

Shared fields: target-level tests

Rows are shuffled and stem from different studies. An empty or dashed field is not shown. ICn: concentration for n% inhibition. Inhibition is in % at the dose shown (toxicity tests: loss of growth or viability).

structure | read-out | dose | species | strain or isolate | protein | result
COc1ccc2c(c1OC)Cc1nc(N)nc(N)c1-2 | IC50 | - | Cryptosporidium parvum | TYPE 2 | Dihydrofolate reductase | >10 µM
Clc1cccc(N2CCN(c3cncc(-c4csc5ccccc45)n3)CC2)c1 | IC50 | - | Cytomegalovirus | - | UL97 kinase | <100 µM
COc1cc(CC2CCc3nc(N)nc(N)c3C2)cc(OC)c1OC | IC50 | - | Cryptosporidium parvum | TYPE 1 | Dihydrofolate reductase | 0.56 µM
O=C(O)c1ccc(N2C(=O)C(=Cc3ccc(-c4ccccc4[N+](=O)[O-])o3)SC2=S)cc1 | IC50 | - | Bovine viral diarrhea virus | - | NS5 polymerase | ≤1 µM
CC(C)(C)c1ccc(-c2cncc(N3CCN(c4ccccc4)CC3)n2)cc1 | IC50 | - | Cytomegalovirus | - | UL97 kinase | <100 µM
O=C(O)c1ccc(N2C(=O)C(=Cc3ccc(-c4ccc5c(c4)OCO5)o3)SC2=S)cc1 | IC50 | - | Bovine viral diarrhea virus | - | NS5 polymerase | ≤1 µM
CC1(C)C2CC[C@@H](CNc3nnc(NC(=O)/C=C/c4ccccc4Cl)s3)C1C2 | IC50 | - | Human cytomegalovirus | - | Polymerase | >25 µM
CN(Cc1ccc2nc(N)nc(N)c2n1)c1ccc(C(=O)N2CCOCC2)cc1 | IC50 | - | Cryptosporidium parvum | TYPE 2 | Dihydrofolate reductase | 0.65 µM
CCSCCNc1nnc(NC(=O)c2c(Cl)cccc2Cl)s1 | IC50 | - | Human cytomegalovirus | - | Polymerase | >25 µM
Nc1nc(N)c2c(n1)CCC(Cc1cccc(C(F)(F)F)c1)C2 | IC50 | - | Cryptosporidium parvum | TYPE 2 | Dihydrofolate reductase | 0.45 µM
N#Cc1ccc(C(=O)Nc2nnc(NCCc3ccccc3)s2)cc1 | IC50 | - | Human cytomegalovirus | - | Polymerase | >25 µM
Fc1ccc(N2CCN(c3cncc(-c4cc5ccccc5s4)n3)CC2)c(F)c1 | inhibition | 1 µM | Cytomegalovirus | - | UL97 kinase | <50%
O=C1NC(=S)SC1=Cc1ccc(-c2ccc(Cl)c(Cl)c2)s1 | IC50 | - | Bovine viral diarrhea virus | - | NS5 polymerase | ≤1 µM
COc1cc(CCc2cc3c(N)nc(N)nc3s2)c(Br)c(OC)c1OC | IC50 | - | Cryptosporidium parvum | TYPE 2 | Dihydrofolate reductase | 5.1 µM
FC(F)(F)c1ccc(-c2cncc(N3CCN(c4cccc(Cl)c4)CC3)n2)cc1 | inhibition | 10 µM | Cytomegalovirus | - | UL97 kinase | >15%
COc1ccc(-c2ccc(C=C3SC(=S)N(c4ccc(C(=O)O)cc4)C3=O)o2)cc1 | IC50 | - | Bovine viral diarrhea virus | - | NS5 polymerase | ≤1 µM
Cc1sc2nc(N)nc(N)c2c1-c1ccc(Cl)cc1 | IC50 | - | Cryptosporidium parvum | TYPE 1 | Dihydrofolate reductase | >10 µM
O=C(Nc1nnc(NCc2ccc(Cl)c(Cl)c2)s1)c1ccc([N+](=O)[O-])o1 | IC50 | - | Human cytomegalovirus | - | Polymerase | >25 µM
Fc1ccc(N2CCN(c3cncc(-c4cccc5ccccc45)n3)CC2)c(F)c1 | IC50 | - | Cytomegalovirus | - | UL97 kinase | <100 µM
CN(Cc1ccc2nc(N)nc(N)c2n1)c1ccc(Cl)cc1 | IC50 | - | Cryptosporidium parvum | TYPE 1 | Dihydrofolate reductase | 9.1 µM
COc1ccccc1C(=O)Nc1nnc(NCCCCc2ccccc2)s1 | IC50 | - | Human cytomegalovirus | - | Polymerase | >25 µM

The last 2 rows once more:

| structure | read-out | dose | species | strain or isolate | protein | result |
|---|---|---|---|---|---|---|
| CN(Cc1ccc2nc(N)nc(N)c2n1)c1ccc(Cl)cc1 | IC50 | - | Cryptosporidium parvum | TYPE 1 | Dihydrofolate reductase | 9.1 µM |
| COc1ccccc1C(=O)Nc1nnc(NCCCCc2ccccc2)s1 | IC50 | - | Human cytomegalovirus | - | Polymerase | >25 µM |